# Reference: patent US20170049884A1, “USE OF ANTI-CCR5 ANTIBODIES IN GRAFT VERSUS HOST DISEASE” (CytoDyn Inc., priority 2014, published 2017)
# Amino acid sequences for entries named in this document (tags omitted).
# UniProt P51681, whole entry: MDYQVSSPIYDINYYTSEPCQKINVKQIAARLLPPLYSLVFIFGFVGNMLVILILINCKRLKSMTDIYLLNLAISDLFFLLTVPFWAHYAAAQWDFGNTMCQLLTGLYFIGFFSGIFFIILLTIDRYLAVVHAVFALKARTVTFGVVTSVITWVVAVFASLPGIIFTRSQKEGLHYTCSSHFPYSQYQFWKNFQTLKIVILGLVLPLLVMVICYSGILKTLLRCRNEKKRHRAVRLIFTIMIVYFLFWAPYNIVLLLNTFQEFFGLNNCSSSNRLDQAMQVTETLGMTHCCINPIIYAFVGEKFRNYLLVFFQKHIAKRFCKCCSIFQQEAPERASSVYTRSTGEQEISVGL
# B1: PRO 140: humanized IgG4,kappa anti-CCR5 mAb; humanized version of the murine mAb PA14 (antibody, chains of the INN, looked up, V domains shown)
# VH: EVQLVESGGGLVKPGGSLRLSCAASGYTFSNYWIGWVRQAPGKGLEWIGDIYPGGNYIRNNEKFKDKTTLSADTSKNTAYLQMNSLKTEDTAVYYCGSSFGSNYVFAWFTYWGQGTLVTVSS
# VL: DIVMTQSPLSLPVTPGEPASISCRSSQRLLSSYGHTYLHWYLQKPGQSPQLLIYEVSNRFSGVPDRFSGSGSGTDFTLKISRVEAEDVGVYYCSQSTHVPLTFGQGTKVEIK
# Target: CCR5 (Homo sapiens, UniProt P51681)
# Assay: Competition binding: inhibition of 3H-UK-427,857 binding to CEM.NKR-CCR5 cells
# Set-up: host or cells: CEM.NKR-CCR5 (transduced human T cell leukemia line)
# Settings: higher than the antiviral IC50 of PRO 140
molecule,measurement,value
B1,EC50 relative to antiviral IC50,5-10 fold
